A mixed list of measured activities; the numbers were collected in NIAID ChemDB.

Common to all: tests in culture

Blank or dashed fields: not listed here. A number after MIC or MFC names an inhibition level or a share of isolates. Neighbouring rows are from separate reports. Two numbers with a dash give a range or band. ECn is the concentration giving n% inhibition of infection, replication or growth.

compound,read-out,strain or isolate,read by,organism,setting,value
C=CCc1ccc(OC)c(OC)c1,MIC90,3054,turbidity,Candida albicans,,350 µg/mL
COc1ccc(C(c2ccc(OC)cc2)n2ccnc2)cc1,MFC,,broth dilution,Candida dubliniensis,,>256 µg/mL
C[C@@H](N1CCN(Cc2cn(Cc3ccc(Cl)cc3Cl)c3ccc(C#N)cc23)CC1)[C@](O)(Cn1cncn1)c1ccc(F)cc1F,MIC80,ATCC 64548,resazurin,Candida albicans,,0.25 µg/mL
CCCCCCCCCCCCCCCCn1cc[n+](COCCOC[n+]2ccn(CCCCCCCCCCCCCCCC)c2)c1,MIC100,ATCC 6258,agar diffusion,Candida krusei,,27 µM
OB(O)c1ccccc1,MIC,,turbidity,Candida tenuis,,62.5 µg/mL
C[C@@H](N1CCN(Cc2cn(Cc3ccc(F)cc3F)c3c(C#N)cccc23)CC1)[C@](O)(Cn1cncn1)c1ccc(F)cc1F,MIC80,ATCC 90028,resazurin,Candida albicans,,1 µg/mL
CCCCCOc1ccc(-c2cc(-c3ccc(C(=O)N[C@H]4C[C@@H](O)[C@@H](O)NC(=O)[C@@H]5[C@@H](O)[C@@H](C)CN5C(=O)[C@H]([C@H](O)CC(N)=O)NC(=O)[C@H]([C@H](O)[C@@H](O)c5ccc(O)c(OS(=O)(=O)O)c5)NC(=O)[C@@H]5C[C@@H](O)CN5C(=O)[C@H]([C@@H](C)O)NC4=O)cc3)no2)cc1,MIC50,,,Candida dubliniensis,,0.015–0.12 µg/mL
CCCCCCn1cc[n+](COCCCCOC[n+]2ccn(CCCCCC)c2)c1,MIC100,ATCC 6258,agar diffusion,Candida krusei,,326 µM
Clc1ccc(C(c2ccccc2)n2nnc3ccccc32)cc1,MIC90,,agar,Candida dubliniensis,,>256 µg/mL
CCCCn1cc[n+](COCCCCOC[n+]2ccn(CCCC)c2)c1,MIC100,ATCC 6258,agar diffusion,Candida krusei,,2871 µM
CCC(C)CC(C)CCCCCCCCC(=O)N[C@H]1C[C@@H](O)[C@H](NCCN)NC(=O)[C@@H]2[C@@H](O)CCN2C(=O)[C@H]([C@H](O)CCN)NC(=O)[C@H]([C@H](O)[C@@H](O)c2ccc(O)cc2)NC(=O)[C@@H]2C[C@@H](O)CN2C(=O)[C@H]([C@@H](C)O)NC1=O,EC90,40 isolates,broth dilution,Candida glabrata,pH 7,0.5 µg/mL
Cc1cc(=O)oc2cc(OCC(O)Cn3cnc4ccccc43)cc(OCC(O)Cn3cnc4ccccc43)c12,MIC,,,Candida mycoderma,,64 µg/mL
CCCCCCCCCCCCn1cc[n+](COCCCCCCOC[n+]2ccn(CCCCCCCCCCCC)c2)c1,MIC100,ATCC 6258,agar diffusion,Candida krusei,,2 µM
OB1OC(N2CCCCC2)c2ccccc21,MFC,,turbidity,Candida tenuis,,62.5 µg/mL
O=C(c1ccccc1)C(c1ccccc1)n1ccnc1,MIC90,,agar,Candida dubliniensis,,128 µg/mL
O=C1C2=C(OC(CI)C2)C(=O)c2ccccc21,MIC,Clinical isolate,broth dilution,Candida tropicalis,,20.15 µg/mL
C[C@@H](N1CCN(Cc2cn(Cc3ccc(Cl)cc3)c3c(F)cccc23)CC1)[C@](O)(Cn1cncn1)c1ccc(F)cc1F,MIC80,ATCC MYA-1003,resazurin,Candida albicans,,8 µg/mL
CC[C@@H]([C@H](C)O)n1ncn(-c2ccc(N3CCN(c4ccc(OC[C@@H]5CO[C@@](Cn6cncn6)(c6ccc(F)cc6F)C5)cc4)CC3)cc2)c1=O,EC90,40 isolates,broth dilution,Candida glabrata,pH 4,>16 µg/mL
C[C@@H](N1CCN(Cc2cn(Cc3ccc(F)cc3)c3c(F)cccc23)CC1)[C@](O)(Cn1cncn1)c1ccc(F)cc1F,MIC80,ATCC 36082,resazurin,Candida albicans,,8 µg/mL
Fc1cc(F)c(B2Oc3ccccc3O2)c(F)c1,MFC,,turbidity,Candida tenuis,,250 µg/mL
Clc1ccc(C(c2ccccc2)n2ccnc2)cc1,MFC,,broth dilution,Candida krusei,,0.5 µg/mL
OB(O)c1c(F)cc(F)cc1F,MIC,,turbidity,Candida tenuis,,250 µg/mL
CC(C)CC(O)C(=O)O,MFC100,EO 323,broth dilution / visual reading,Candida dubliniensis,,72000 µg/mL
COC(=O)c1c(N)oc2c1cc(O)c1sc(C)nc12,MIC,KCCM 50662,broth dilution,Candida utilis,,25 µg/mL
Cc1cc(=O)oc2cc(OCC(O)Cn3cncn3)cc(OCC(O)Cn3cncn3)c12,MIC,,,Candida mycoderma,,4 µg/mL
Cc1nc2c(s1)C(=O)C(Nc1ccc(Cl)cc1)=C(Cl)C2=O,MIC,KCCM 50662,broth dilution,Candida utilis,,12.5 µg/mL
C=CCn1cc(CN2CCN([C@H](C)[C@](O)(Cn3cncn3)c3ccc(F)cc3F)CC2)c2ccc(Cl)cc21,MIC80,ATCC 64548,resazurin,Candida albicans,,0.125 µg/mL
O=C(c1ccccc1)C(c1ccccc1)n1cncn1,MFC,,broth dilution,Candida dubliniensis,,256 µg/mL
C[C@@H](N1CCN(Cc2cn(Cc3ccc(Cl)cc3Cl)c3c(F)cccc23)CC1)[C@](O)(Cn1cncn1)c1ccc(F)cc1F,MIC80,ATCC MYA-1003,resazurin,Candida albicans,,>128 µg/mL
CCCCCCCCCCCCCCCC(=O)NC(CCCCN)C(=O)NC(CCCCN)C(N)=O,MIC,165,broth dilution,Candida guilliermondii,,8 µg/mL
O=C(CN1CCOCC1)Nc1nc(-c2ccccc2)cc(-c2ccc(F)cc2)n1,MIC,Strains 7 and 7,,Candida spp.,,12.5 µg/mL
Nc1[nH]c(=O)ncc1F,EC90,40 isolates,broth dilution,Candida glabrata,pH 5,0.125 µg/mL
CCC(C)CC(C)CCCCCCCCC(=O)N[C@H]1C[C@@H](O)[C@H](NCCN)NC(=O)[C@@H]2[C@@H](O)CCN2C(=O)[C@H]([C@H](O)CCN)NC(=O)[C@H]([C@H](O)[C@@H](O)c2ccc(O)cc2)NC(=O)[C@@H]2C[C@@H](O)CN2C(=O)[C@H]([C@@H](C)O)NC1=O,MIC,FMR 9474,broth dilution,Candida lusitaniae,,0.25 µg/mL
C[C@@H](N1CCN(Cc2cn(Cc3ccc(F)cc3)c3c(Cl)cccc23)CC1)[C@](O)(Cn1cncn1)c1ccc(F)cc1F,MIC80,ATCC 36082,resazurin,Candida albicans,,4 µg/mL
CC[C@@H]([C@H](C)O)n1ncn(-c2ccc(N3CCN(c4ccc(OC[C@@H]5CO[C@@](Cn6cncn6)(c6ccc(F)cc6F)C5)cc4)CC3)cc2)c1=O,MIC50,,,Candida lusitaniae,,0.008–1 µg/mL
O=C(O)c1ccc(C[C@H](C(=O)O)[C@@H](O)C(=O)O)cc1,MIC,SC5314,,Candida lusitaniae,,2 µg/mL
CCCCCCCCCCCCCCn1cc[n+](COCCCCOC[n+]2ccn(CCCCCCCCCCCCCC)c2)c1,MIC100,ATCC 6258,agar diffusion,Candida krusei,,28 µM
C[C@@H](N1CCN(Cc2cn(-c3ccc(F)cc3)c3ccccc23)CC1)[C@](O)(Cn1cncn1)c1ccc(F)cc1F,MIC80,ATCC MYA-1003,resazurin,Candida albicans,,4 µg/mL
CCC(C)n1ncn(-c2ccc(N3CCN(c4ccc(OC[C@H]5CO[C@](Cn6cncn6)(c6ccc(Cl)cc6Cl)O5)cc4)CC3)cc2)c1=O,EC90,40 isolates,broth dilution,Candida glabrata,pH 6,>16 µg/mL
CCCCCCn1cc[n+](COCCCOC[n+]2ccn(CCCCCC)c2)c1,MIC100,ATCC 6258,agar diffusion,Candida krusei,,649 µM
Cc1nc2c(s1)C(=O)C(Nc1ccc(I)cc1)=C(Cl)C2=O,MIC,KCCM 50662,broth dilution,Candida utilis,,25 µg/mL
CC(C)C[C@H](N)C(=O)O,MFC100,EO 323,broth dilution,Candida dubliniensis,,>72000 µg/mL
Nc1scc2c1c(=O)oc1ccc3ccccc3c12,MIC,,broth dilution,Candida guilliermondii,,128 µg/mL

For reference, 6 entries again:

| compound | read-out | strain or isolate | read by | organism | setting | value |
|---|---|---|---|---|---|---|
| Clc1ccc(C(c2ccccc2)n2nnc3ccccc32)cc1 | MIC90 |  | agar | Candida dubliniensis |  | >256 µg/mL |
| COC(=O)c1c(N)oc2c1cc(O)c1sc(C)nc12 | MIC | KCCM 50662 | broth dilution | Candida utilis |  | 25 µg/mL |
| Cc1nc2c(s1)C(=O)C(Nc1ccc(Cl)cc1)=C(Cl)C2=O | MIC | KCCM 50662 | broth dilution | Candida utilis |  | 12.5 µg/mL |
| C[C@@H](N1CCN(Cc2cn(Cc3ccc(F)cc3)c3c(F)cccc23)CC1)[C@](O)(Cn1cncn1)c1ccc(F)cc1F | MIC80 | ATCC 36082 | resazurin | Candida albicans |  | 8 µg/mL |
| C[C@@H](N1CCN(Cc2cn(Cc3ccc(Cl)cc3Cl)c3c(F)cccc23)CC1)[C@](O)(Cn1cncn1)c1ccc(F)cc1F | MIC80 | ATCC MYA-1003 | resazurin | Candida albicans |  | >128 µg/mL |
| CCC(C)n1ncn(-c2ccc(N3CCN(c4ccc(OC[C@H]5CO[C@](Cn6cncn6)(c6ccc(Cl)cc6Cl)O5)cc4)CC3)cc2)c1=O | EC90 | 40 isolates | broth dilution | Candida glabrata | pH 6 | >16 µg/mL |